Literature values as cited in US20120034296A1 (priority 2009, published 2012).

Test system: nerve
Settings: without epinephrine; cited from earlier work

SMILES: NC1=N[C@H](O)[C@H]2[C@H]3O[C@]4(O)O[C@@H]([C@@H](O)[C@@]2(N1)[C@@H]4O)[C@]3(O)CO
- toxicity in sciatic nerve block: considerable toxicity at the most effective doses
